Results of unrelated studies side by side (data: NIAID ChemDB).

Common to all: tests in culture; species: HIV-1; measure: EC50

ECn: concentration that inhibits the pathogen or its effect by n%. a–b is a range or a potency band. Lines come from different laboratories, so protocols vary. An empty or dashed field is not shown.

| SMILES | cell line | strain | method | changes | setting | result |
|---|---|---|---|---|---|---|
| CC(C)C1=C2C3CCC4[C@@]5(C)CC[C@H](OC(=O)CC(C)(C)C(=O)O)C(C)(C)C5CC[C@@]4(C)[C@]3(C)CC[C@@]2(NC(=O)NC2(c3ccccc3)CC2)CC1=O | MT-2 | IIIB | RT activity | - | 30% human serum | <0.199 µM |
| Cc1cc(OCc2ccc(-c3cccc(C(=O)O)c3)cc2)cnc1CS(=O)c1nc2ccccc2[nH]1 | HEK293T | Clinical isolates | ELISA | - | - | 20 µM |
| COc1cc2c(cc1OCCC(=O)Nc1cc(C(=O)Nc3cc(C(=O)Nc4cc(C(=O)NCCC(=N)N)n(C)c4)n(C)c3)n(C)c1)N=C[C@@H]1CCCN1C2=O | Jurkat cells | - | PCR | - | - | 2.5 µM |
| O=C(NC(CNC(=O)c1ccc(O)c(O)c1O)C(=O)O)c1cc(O)c(O)c(O)c1 | MT-2 | LAI | cytopathic effect / neutral red | - | - | 3 µM |
| Cc1cc(S(N)(=O)=O)ccc1NC(=O)COc1ccc(Cl)cc1C(=O)c1cc(F)cc(F)c1 | HeLa + HELA CD4+ | WTRVA | β-galactosidase | - | - | <0.01 µM |
| Nc1nc(NC2CC2)c2ncn([C@H]3C=C[C@@H](CO)C3)c2n1 | MT-2 | Clinical isolate | recombinant virus assay | A62V/T69ins/V75I/A98G/K103S/G190A | - | 1.496 µM |
| CC(C)C1=C2[C@H]3CC[C@@H]4[C@@]5(C)CC[C@H](OC(=O)[C@H]6C[C@@H](C(=O)O)C6(C)C)C(C)(C)[C@@H]5CC[C@@]4(C)[C@]3(C)CC[C@@]2([C@@H](O)CNCC2CCCC2)CC1=O | MT-2 | 92HT599 | p24 / ELISA | - | - | <1 µM |
| COC(=O)C(CCNC(=O)c1ccc(O)c(O)c1)NC(=O)c1ccc(O)c(O)c1 | MT-2 | LAI | cytopathic effect / neutral red | - | - | >62.5 µM |
| CC(C)C1=C2[C@H]3CC[C@@H]4[C@@]5(C)CC[C@H](OC(=O)[C@H]6C[C@@H](C(=O)O)C6(C)C)C(C)(C)[C@@H]5CC[C@@]4(C)[C@]3(C)CC[C@@]2([C@@H](O)CNC(=O)c2ccc(O[C@@H]3CCOC3)cc2)CC1=O | MT-2 | 92HT599 | p24 / ELISA | - | - | <1 µM |
| O=C(COc1cccnc1-c1cccc2ccccc12)Nc1cccnc1Cl | MT-4 | RES056 | MTT / absorbance | - | - | >179 µM |
| Cc1nc2ccc(CNC(=O)C[C@@]34CC[C@]5(C)[C@H](CC[C@@H]6[C@@]7(C)CC[C@H](OC(=O)[C@H]8C[C@@H](C(=O)O)C8(C)C)C(C)(C)[C@@H]7CC[C@]65C)C3=C(C(C)C)C(=O)C4)cc2[nH]1 | MT-2 | 92HT599 | p24 / ELISA | - | - | <1 µM |
| CN[C@@H]1[C@H](O[C@@H]2OC[C@@H](O)[C@H](O)[C@H]2O)[C@@H](O)[C@H](O[C@H]2c3cc(C)c(C(=O)N[C@H](C)C(=O)O)c(O)c3-c3c(cc4c(c3O)C(=O)c3cc(OC)cc(O)c3C4=O)[C@@H]2O)O[C@@H]1C | MT-4 | NL4-3 | MTS | - | - | 3.3 µM |
| CC(C)C1=C2C3CCC4[C@@]5(C)CC[C@H](OC(=O)CC(C)(C)C(=O)O)C(C)(C)C5CC[C@@]4(C)[C@]3(C)CC[C@@]2(NC(=O)c2cn[nH]c2)CC1=O | MT-2 | IIIB | RT activity | - | 30% human serum | <0.199 µM |
| CC(C)OC(=O)OCOP(=O)(CO[C@H](C)Cn1cnc2c(N)ncnc21)OCOC(=O)OC(C)C | C8166 | - | p24 / ELISA | Y181C | - | 0.05662 µM |
| O=C(COc1cccnc1-c1cccc2ccccc12)Nc1ccc(C(F)(F)F)cc1 | MT-4 | IIIB | MTT / absorbance | - | - | >11.7 µM |
| Cc1cc(S(N)(=O)=O)ccc1NC(=O)COc1ccc(Cl)cc1C(=O)c1cc(Cl)cc(C#N)c1 | HeLa + HELA CD4+ | HXB2 | β-galactosidase | RT-G190A | - | <0.01 µM |
| NC(=O)c1ccc(NC(=O)c2ccccc2SSc2ccccc2C(=O)Nc2ccc(C(N)=O)cc2)cc1 | CEM | - | XTT | - | - | 2.3 µM |
| C=C1C(=O)O[C@H]2[C@@H]1[C@H](OC(=O)C(C)C)[C@@H]1[C@@](C)([C@@H](OC(C)=O)CC[C@]1(C)O)[C@H]2OC(C)=O | C8166 | IIIB | absorbance | - | - | 7.06 µM |
| COC(=O)C(CCCCNC(=O)/C=C/c1ccc(O)c(O)c1)NC(=O)/C=C/c1ccc(O)c(O)c1 | MT-2 | LAI | cytopathic effect / neutral red | - | - | >62.5 µM |
| CC(C)C1=C2[C@H]3CC[C@@H]4[C@@]5(C)CC[C@H](OC(=O)CC(C)(C)C(=O)O)C(C)(C)[C@@H]5CC[C@@]4(C)[C@]3(C)CC[C@@]2(NC(=O)c2cccs2)CC1=O | MT-2 | IIIB | RT activity | - | 30% human serum | <0.199 µM |
| C[C@@H]1CCO[C@H]2Cn3cc(C(=O)NCc4ccc(F)cc4F)c(=O)c(O)c3C(=O)N12 | TZM-bl | - | luciferase / luminescence | L74F | - | 0.0011 µM |
| CC(C)C1=C2C3CCC4[C@@]5(C)CC[C@H](OC(=O)CC(C)(C)C(=O)O)C(C)(C)C5CC[C@@]4(C)[C@]3(C)CC[C@@]2(NC(=O)c2ccncn2)CC1=O | MT-2 | IIIB | RT activity | - | 30% human serum | <0.199 µM |
| Nc1ncnc2c1ncn2[C@H]1C[C@@H](CO)O1 | MT-4 | - | plaque count | - | - | 0.25 µg/mL |
| O=C(/C=C/c1ccc(O)c(O)c1)NCCCC(NC(=O)/C=C/c1ccc(O)c(O)c1)C(=O)O | MT-2 | LAI | cytopathic effect / neutral red | - | - | 7.2 µM |
| COC(=O)c1ccc(NC(=O)COc2cccnc2-c2cccc3ccccc23)c(Br)c1 | MT-4 | RES056 | MTT / absorbance | - | - | >19.3 µM |
| O=C(COc1ccc(Cl)cc1C(=O)c1nccs1)Nc1ccccc1 | MT-4 | IIIB | cytopathic effect / propidium iodide | - | - | 0.101–1 µM |
| COC(=O)C(CCCNC(=O)/C=C/c1ccc(O)c(O)c1)NC(=O)/C=C/c1ccc(O)c(O)c1 | MT-2 | LAI | cytopathic effect / neutral red | - | - | >62.5 µM |
| CC(C)C1=C2C3CCC4[C@@]5(C)CC[C@H](OC(=O)[C@H]6CCC[C@@H](C(=O)O)C6)C(C)(C)C5CC[C@@]4(C)[C@]3(C)CC[C@@]2(N)CC1=O | MT-2 | IIIB | RT activity | - | 30% human serum | >1 µM |
| Cc1cc(S(N)(=O)=O)ccc1NC(=O)COc1ccc(Cl)cc1C(=O)c1cccc(C#N)c1 | HeLa + HELA CD4+ | HXB2 | β-galactosidase | RT-V108I Y181C | - | <0.01 µM |
| C=C1C(=O)O[C@H]2[C@@H]1[C@H](OC(=O)C(C)C)[C@@H]1[C@@](C)([C@@H](OC(C)=O)CC[C@]1(C)O)[C@H]2O | C8166 | IIIB | absorbance | - | - | 8.56 µM |
| NC(=O)c1ccc(NC(=O)COc2cccnc2-c2ccc(C(F)(F)F)cc2)cc1 | MT-4 | IIIB | MTT / absorbance | - | - | >69.5 µM |
| Cc1ccccc1C(=O)N[C@@]12CC[C@]3(C)C(CC[C@@H]4[C@@]5(C)CC[C@H](OC(=O)CC(C)(C)C(=O)O)C(C)(C)[C@@H]5CC[C@]43C)C1=C(C(C)C)C(=O)C2 | MT-2 | IIIB | RT activity | - | 30% human serum | <0.199 µM |
| CC[C@H](C)C(NC(=O)c1ccccc1S)C(=O)O | CEM | - | XTT | - | - | 5.5 µM |
| COC(=O)[C@H](CCCCNC(=O)c1cc(O)c(O)c(O)c1)NC(=O)c1cc(O)c(O)c(O)c1 | MT-2 | LAI | cytopathic effect / neutral red | - | - | >62.5 µM |
| COC[C@@H](c1ccc(C(F)(F)F)cc1)N1CCN(C2(C)CCN(C(=O)c3c(C)ncnc3C)CC2)C[C@@H]1C | TZM-bl | S | - | M518V F519L V535M | - | 0.0042 µM |
| O=C(Nc1cc(C(F)(F)F)cc(C(F)(F)F)c1)c1ccccc1SSc1ccccc1C(=O)Nc1cc(C(F)(F)F)cc(C(F)(F)F)c1 | CEM | - | XTT | - | - | >3.6 µM |
| CC(C)C1=C2[C@H]3CC[C@@H]4[C@@]5(C)CC[C@H](OC(=O)[C@H]6C[C@@H](C(=O)O)C6(C)C)C(C)(C)[C@@H]5CC[C@@]4(C)[C@]3(C)CC[C@@]2([C@@H](O)CNC(=O)c2ccc(Cl)cc2OCCN(C)C)CC1=O | MT-2 | 92HT599 | p24 / ELISA | - | - | <1 µM |
| COC(=O)[C@H](CCCCNC(=O)/C=C/c1cc(OC)c(OC)c(OC)c1)NC(=O)/C=C/c1cc(OC)c(OC)c(OC)c1 | MT-2 | LAI | cytopathic effect / neutral red | - | - | >31.25 µM |
| CCc1cc(/C=C/C#N)cc(CC)c1-c1cccc2c(N)nc(Nc3ccc(C#N)cc3)nc12 | MT-4 | HXB2 | cytopathic effect / luminescence | - | - | 0.0024 µM |
| CC(C)Cn1cnc2c(N)nc3ccccc3c21 | CD4+ T-cell | NL4-3 | luciferase / reporter gene / luminescence | - | pseudotyped | 9.4 µM |
| CC(C)C1=C2[C@H]3CC[C@@H]4[C@@]5(C)CC[C@H](OC(=O)[C@H]6C[C@@H](C(=O)O)C6(C)C)C(C)(C)[C@@H]5CC[C@@]4(C)[C@]3(C)CC[C@@]2(CCNCc2ccc(C(F)(F)F)cc2)CC1=O | MT-2 | 92HT599 | p24 / ELISA | - | - | <1 µM |
| Cc1cc2cn[nH]c2cc1NC(=O)COc1ccc(Cl)cc1C(=O)c1cccc(C#N)c1 | HeLa + HELA CD4+ | HXB2 | β-galactosidase | RT-V106I Y181C | - | 0.011–0.1 µM |
| COc1cc2c(cc1OCCC(=O)Nc1cc(C(=O)NCCC(=N)N)n(C)c1)N=C[C@@H]1CCCN1C2=O | Jurkat cells | - | PCR | - | - | >200 µM |
| Cc1cc(S(N)(=O)=O)ccc1NC(=O)COc1ccc(Cl)cc1C(=O)c1cc(F)cc(C#N)c1 | HeLa + HELA CD4+ | HXB2 | β-galactosidase | RT-P225H | - | <0.01 µM |
| O=C(N[C@@H](CO)C(=O)O)c1ccccc1SSc1ccccc1C(=O)N[C@@H](CO)C(=O)O | CEM | - | XTT | - | - | >100 µM |
| Nc1ncnc2c1ncn2[C@@H]1O[C@H](CO)[C@@H]1O | MT-4 | - | plaque count | - | - | 0.54 µg/mL |
| CC(C)C1=C2C3CCC4[C@@]5(C)CC[C@H](OC(=O)CC(C)(C)C(=O)O)C(C)(C)C5CC[C@@]4(C)[C@]3(C)CC[C@@]2(NC(=O)OCC2CCCN(C)C2)CC1=O | MT-2 | IIIB | RT activity | - | 30% human serum | <0.199 µM |
| O=C(/C=C/c1cc(O)c(O)c(O)c1)NCCCC(NC(=O)/C=C/c1cc(O)c(O)c(O)c1)C(=O)O | MT-2 | LAI | cytopathic effect / neutral red | - | - | 1.1 µM |
| CC(C)C1=C2C3CCC4[C@@]5(C)CC[C@H](OC(=O)CC(C)(C)C(=O)O)C(C)(C)C5CC[C@@]4(C)[C@]3(C)CC[C@@]2(NC(=O)[C@@H]2CCCN2C(C)C)CC1=O | MT-2 | IIIB | RT activity | - | 30% human serum | <0.199 µM |
| CC(C)C1=C2[C@H]3CC[C@@H]4[C@@]5(C)CC[C@H](OC(=O)[C@H]6C[C@@H](C(=O)O)C6(C)C)C(C)(C)[C@@H]5CC[C@@]4(C)[C@]3(C)CC[C@@]2(CCNC(=O)c2ccc(Cl)cc2OCCN(C)C)CC1=O | MT-2 | 92HT599 | p24 / ELISA | - | - | <1 µM |
| CC(C)C1=C2[C@H]3CC[C@@H]4[C@@]5(C)CC[C@H](OC(=O)CC(C)(C)C(=O)O)C(C)(C)[C@@H]5CC[C@@]4(C)[C@]3(C)CC[C@@]2(NC(=O)CCN2CCCC2)CC1=O | MT-2 | IIIB | RT activity | - | 30% human serum | <0.199 µM |
| N#Cc1ccc(NC(=O)COc2cccnc2-c2cccc3ccccc23)cc1 | MT-4 | IIIB | MTT / absorbance | - | - | >39.5 µM |
| Cc1cc(C)cc(C(=O)c2cc(Cl)ccc2OCC(=O)Nc2ccc(S(N)(=O)=O)cc2C)c1 | HeLa + HELA CD4+ | HXB2 | β-galactosidase | RT-K103N V108I | - | <0.01 µM |
| COc1ccc(-c2ncccc2OCC(=O)Nc2ccc(S(N)(=O)=O)cc2)cc1 | MT-4 | IIIB | MTT / absorbance | - | - | >243 µM |
| C[C@H](Cn1cnc2c(N)ncnc21)OCP(=O)(O)O | MT-2 | Clinical isolate | recombinant virus assay | A62V/V75I/F77L/F116L/Q161M/M184V | - | 0.0036 µM |

Repeating the first 3 entries:

SMILES,cell line,strain,method,changes,setting,result
CC(C)C1=C2C3CCC4[C@@]5(C)CC[C@H](OC(=O)CC(C)(C)C(=O)O)C(C)(C)C5CC[C@@]4(C)[C@]3(C)CC[C@@]2(NC(=O)NC2(c3ccccc3)CC2)CC1=O,MT-2,IIIB,RT activity,-,30% human serum,<0.199 µM
Cc1cc(OCc2ccc(-c3cccc(C(=O)O)c3)cc2)cnc1CS(=O)c1nc2ccccc2[nH]1,HEK293T,Clinical isolates,ELISA,-,-,20 µM
COc1cc2c(cc1OCCC(=O)Nc1cc(C(=O)Nc3cc(C(=O)Nc4cc(C(=O)NCCC(=N)N)n(C)c4)n(C)c3)n(C)c1)N=C[C@@H]1CCCN1C2=O,Jurkat cells,-,PCR,-,-,2.5 µM